{"source": "PubChem BioAssay AID1259414 (Drosophila RNAi Screening Center, 2018)", "test": "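Fly genes that alter Wolbachia amount inside host cells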 (primary screen)", "system": "Drosophila JW18 cells infected with Wolbachia", "knock-down reagent": "long dsRNA against Drosophila genes, 0.25 µg dsRNA per well of a 384-well plate", "timing": "5 days", "conditions": "cells persistently infected with Wolbachia before knock-down; no added drug", "detection": "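Imaged fluorescence in situ signal for Wolbachia 23S rRNA per DAPI-counted host cell, given as a robust z-score within each plate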", "reading the numbers": "Wolbachia per cell robust z: higher = more Wolbachia per host cell than the plate typical", "rule for the call": "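Hit when robust z is 1.5 or more, or -1.5 or less, in at least two of three replicates; excludes dsRNAs with several or no targets, genes not expressed in JW18 and well A1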", "note": "In all, the deposit lists about 24,000 reagents; shown is an unselected part of those that have a named target and a result. Of all reagents, about 1,210 (5%) got an active call. 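Inactive calls also include excluded dsRNAs with several or no targets, genes unexpressed in JW18, and well A1, regardless of score.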 No sequences are given here."}
{"gene": "mRpL16 (mitochondrial ribosomal protein L16)", "amplicon": "DRSC18550", "Wolbachia per cell robust z, rep 1": -0.509, "Wolbachia per cell robust z, rep 2": -0.803, "Wolbachia per cell robust z, rep 3": 0.156, "Outcome": "inactive"}
{"gene": "mRpL16 (mitochondrial ribosomal protein L16)", "amplicon": "DRSC29510", "Wolbachia per cell robust z, rep 1": 0.205, "Wolbachia per cell robust z, rep 2": -0.0587, "Wolbachia per cell robust z, rep 3": 1.94, "Outcome": "inactive"}
{"gene": "CG30487", "amplicon": "DRSC05377", "Wolbachia per cell robust z, rep 1": 0.977, "Wolbachia per cell robust z, rep 2": 0.857, "Wolbachia per cell robust z, rep 3": 2.25, "Outcome": "inactive"}
{"gene": "Eig71Ef (Ecdysone-induced gene 71Ef)", "amplicon": "DRSC11153", "Wolbachia per cell robust z, rep 1": 0.938, "Wolbachia per cell robust z, rep 2": 0.821, "Wolbachia per cell robust z, rep 3": 0.016, "Outcome": "inactive"}
{"gene": "CG4962", "amplicon": "DRSC10464", "Wolbachia per cell robust z, rep 1": -2.9, "Wolbachia per cell robust z, rep 2": 0.656, "Wolbachia per cell robust z, rep 3": 1.9, "Outcome": "inactive"}
{"gene": "out (outsiders)", "amplicon": "DRSC19347", "Wolbachia per cell robust z, rep 1": 0.0264, "Wolbachia per cell robust z, rep 2": 0.778, "Wolbachia per cell robust z, rep 3": 1.91, "Outcome": "inactive"}
{"gene": "out (outsiders)", "amplicon": "DRSC28913", "Wolbachia per cell robust z, rep 1": -0.102, "Wolbachia per cell robust z, rep 2": 0.284, "Wolbachia per cell robust z, rep 3": 1.13, "Outcome": "inactive"}
{"gene": "CG1537", "amplicon": "DRSC19662", "Wolbachia per cell robust z, rep 1": 1.08, "Wolbachia per cell robust z, rep 2": 0.0979, "Wolbachia per cell robust z, rep 3": -1.38, "Outcome": "inactive"}
{"gene": "Sgs5bis", "amplicon": "DRSC16263", "Wolbachia per cell robust z, rep 1": -2.48, "Wolbachia per cell robust z, rep 2": 0.975, "Wolbachia per cell robust z, rep 3": 0.563, "Outcome": "inactive"}
{"gene": "Tsf3 (Transferrin 3)", "amplicon": "DRSC06849", "Wolbachia per cell robust z, rep 1": -1.29, "Wolbachia per cell robust z, rep 2": 0.761, "Wolbachia per cell robust z, rep 3": -0.16, "Outcome": "inactive"}
{"gene": "EndoB (Endophilin B)", "amplicon": "DRSC07345", "Wolbachia per cell robust z, rep 1": -0.638, "Wolbachia per cell robust z, rep 2": 0.703, "Wolbachia per cell robust z, rep 3": 0.677, "Outcome": "inactive"}
{"gene": "CG17593", "amplicon": "DRSC00504", "Wolbachia per cell robust z, rep 1": -0.367, "Wolbachia per cell robust z, rep 2": -4.58, "Wolbachia per cell robust z, rep 3": -0.765, "Outcome": "inactive"}
{"gene": "CG17593", "amplicon": "DRSC27490", "Wolbachia per cell robust z, rep 1": 1.77, "Wolbachia per cell robust z, rep 2": -0.317, "Wolbachia per cell robust z, rep 3": -0.198, "Outcome": "inactive"}

Sorted by “Wolbachia per cell robust z, rep 2” (descending): some entries from above
{"gene": "Tsf3 (Transferrin 3)", "amplicon": "DRSC06849", "Wolbachia per cell robust z, rep 1": -1.29, "Wolbachia per cell robust z, rep 2": 0.761, "Wolbachia per cell robust z, rep 3": -0.16, "Outcome": "inactive"}
{"gene": "EndoB (Endophilin B)", "amplicon": "DRSC07345", "Wolbachia per cell robust z, rep 1": -0.638, "Wolbachia per cell robust z, rep 2": 0.703, "Wolbachia per cell robust z, rep 3": 0.677, "Outcome": "inactive"}
